This is an account of results in PMC4727981 (Archives of biochemistry and biophysics, 2015).

As a reminder, the Ki is the equilibrium dissociation constant of an inhibitor or competing ligand from its target. The low end stands for higher affinity, the high end for lower affinity. Broadly, the IC50 is the point on the concentration scale where inhibition reaches its midpoint.

The target in assay [1] is T1, human KIAA1363 (Homo sapiens, UniProt Q6PIU2).
T1 sequence (Q6PIU2 1-416 isoform Q6PIU2-2): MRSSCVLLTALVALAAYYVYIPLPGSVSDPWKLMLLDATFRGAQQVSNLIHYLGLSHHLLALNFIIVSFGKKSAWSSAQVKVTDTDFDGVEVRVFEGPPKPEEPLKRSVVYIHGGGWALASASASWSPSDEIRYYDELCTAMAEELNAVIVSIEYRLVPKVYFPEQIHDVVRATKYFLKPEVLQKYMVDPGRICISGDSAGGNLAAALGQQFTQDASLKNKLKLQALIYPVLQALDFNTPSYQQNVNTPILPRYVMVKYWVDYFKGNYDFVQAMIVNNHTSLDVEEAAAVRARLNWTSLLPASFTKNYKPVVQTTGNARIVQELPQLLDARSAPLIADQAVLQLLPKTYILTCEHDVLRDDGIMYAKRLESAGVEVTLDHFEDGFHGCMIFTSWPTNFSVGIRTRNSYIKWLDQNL
The format is biochemical.

Assay [2] concerns the target T1, human KIAA1363. The assay can be described thus: biochemical.

For the compound `CCOP(=O)(OCC)Oc1nc(Cl)c(Cl)cc1Cl` [CPO, O,O′-Diethyl 3,5,6-trichloro-2-pyridyl phosphate], the affinity at human KIAA1363 [1], expressed as Ki, was 0.76 nM.

For `COP(=O)(OC)Oc1ccc([N+](=O)[O-])cc1` [MPO, methyl paraoxon], the IC50 on human KIAA1363 [2] was more than 100 nM.
